Measured data: PubChem BioAssay AID624099 (ICCB-Longwood, 2012)
The whole screen tested about 21,000 reagents; this is an unselected part. 497 of all reagents (2.4%) were called active. 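Higher z means weaker E2 silencing; only reporter increases were scored, and knock-downs that hurt cell survival may mask genuine repressor factors.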

Test: 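Host factors E2 relies on to silence an HPV18 LCR reporter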 (primary screen)
System: human C33A cervical carcinoma cells (HPV-negative) stably expressing BPV1 E2 and an HPV18 LCR luciferase reporter
Knock-down reagent: siRNA pool against human genes, 40 nM
Time to read-out: 72 h
Measured: 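Per-well luciferase luminescence, z-scored on each plate against the plate mean and SD with control wells left out, then averaged across three replicate plates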
Reading the numbers: mean z-score and z-score: higher = stronger reporter signal, weaker E2 silencing
Active means: 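Mean z ≥ 2 together with z ≥ 2 in two or more of the three replicates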

Knock-down of MSH6 (GeneID 2956) gave: mean z-score -0.2; z-score, replicate A = -0.07; z-score, replicate B = -0.42; z-score, replicate C = -0.13; inactive.
For FKSG49 (GeneID 400949), the values are mean z-score 0.36; z-score, replicate A = 0.45; z-score, replicate B = 0.53; z-score, replicate C = 0.11; inactive.
Knock-down of CYP4A22 (GeneID 284541) resulted in: mean z-score -0.94; z-score, replicate A = -1.34; z-score, replicate B = -0.65; z-score, replicate C = -0.82; inactive.
Against PDCD1LG2 (GeneID 80380), the values are mean z-score -0.77; z-score, replicate A = -0.44; z-score, replicate B = -0.92; z-score, replicate C = -0.94; inactive.
Knock-down of F13A1 (GeneID 2162) gave: mean z-score 1.6; z-score, replicate A = 1.23; z-score, replicate B = 1.79; z-score, replicate C = 1.78; inactive.
For PRPF38B (GeneID 55119) the deposit lists mean z-score -0.94; z-score, replicate A = -1.27; z-score, replicate B = -1.26; z-score, replicate C = -0.3; inactive.
Silencing of GABBR1 (GeneID 2550) came out at: mean z-score -0.64; z-score, replicate A = -0.58; z-score, replicate B = -0.87; z-score, replicate C = -0.47; inactive.

A portion of the results above, for reference:
F13A1 (GeneID 2162) → mean z-score: 1.6; z-score, replicate A: 1.23; z-score, replicate B: 1.79; z-score, replicate C: 1.78; Call: inactive
PRPF38B (GeneID 55119) → mean z-score: -0.94; z-score, replicate A: -1.27; z-score, replicate B: -1.26; z-score, replicate C: -0.3; Call: inactive

The list goes on.
Silencing of COQ5 (GeneID 84274) resulted in: mean z-score -0.32; z-score, replicate A = -0.33; z-score, replicate B = -0.26; z-score, replicate C = -0.37; inactive.
DSC3 (GeneID 1825) gave mean z-score -0.56; z-score, replicate A = -0.23; z-score, replicate B = -0.66; z-score, replicate C = -0.79; inactive.
Against ANGPT1 (GeneID 284), the entry reads mean z-score 0.21; z-score, replicate A = 0.3; z-score, replicate B = 0.18; z-score, replicate C = 0.16; inactive.
After knock-down of TUBG1 (GeneID 7283), the record shows mean z-score 0.63; z-score, replicate A = 0.36; z-score, replicate B = 0.57; z-score, replicate C = 0.95; inactive.
WBP2 (GeneID 23558) showed mean z-score 1.14; z-score, replicate A = 1.01; z-score, replicate B = 1.18; z-score, replicate C = 1.23; inactive.
